Compound potency records, mixed from different reports. Data source: NIAID ChemDB in PubChem.

Shared fields: whole-cell or culture tests; species: Mycobacterium bovis BCG

MIC50, MIC90 and the like: level of inhibition, or share of isolates inhibited.

compound | setting | endpoint | method | strain or isolate | value
C#CCCC | 48 h | MIC | resazurin | 1173P2 | 15.5 µg/mL
CCn1cc(/C=N/NC(=S)NN)c2ccccc21 | 24 h | MIC100 | broth dilution | 1173P2 | >500 µg/mL
Cc1c(N)nc([C@H](CC(N)=O)NC[C@H](N)C(N)=O)nc1C(=O)N[C@H](C(=O)N[C@H](C)[C@@H](O)[C@H](C)C(=O)N[C@H](C(=O)NCCc1nc(-c2nc(C(=O)NCCC[S+](C)C)cs2)cs1)[C@@H](C)O)C(O[C@@H]1O[C@@H](CO)[C@@H](O)[C@H](O)[C@@H]1O[C@H]1O[C@H](CO)[C@@H](O)[C@H](OC(N)=O)[C@@H]1O)c1cnc[nH]1 |  | MIC |  | Pasteur | 3.125 µM
CCn1cc(/C=N/Nc2nncs2)c2ccccc21 | 24 h | MIC100 | broth dilution | 1173P2 | 125 µg/mL
C#CC(O)CCCCC | 48 h | MIC | resazurin | 1173P2 | 125 µg/mL
CN(/N=C/c1ccccc1O)c1ccc2ccccc2n1 |  | MIC |  | Pasteur | >100 µM
NNC(=S)N/N=C/c1c[nH]c2ccccc12 | 24 h | MIC100 | broth dilution | 1173P2 | 250 µg/mL
COc1cccc(-c2ccc3[nH]c4cc(C(C)C(=O)O)ccc4c3c2)c1 |  | MIC99 | resazurin / visual reading / absorbance |  | 62.5 µg/mL
Fc1ccc(Cn2cc(/C=N/Nc3nncs3)c3ccccc32)cc1 | 24 h | MIC100 | broth dilution | 1173P2 | 3.91 µg/mL
COC(=O)Cc1ccc2[nH]c3ccccc3c2c1 |  | MIC99 | resazurin / visual reading / absorbance |  | 500 µg/mL
Nc1ccccc1O.O.O=C(O)C1[O][Sb][O]C1C(=O)O |  | MIC |  | Pasteur | 25 µM
C#CC(C)OC(C)=O | 48 h | MIC | resazurin | 1173P2 | 125 µg/mL
COC(=O)Cc1ccc2[nH]c3ccc(Br)cc3c2c1 |  | MIC99 | resazurin / visual reading / absorbance |  | 15.6 µg/mL
OC(c1cc(C23CC4CC(CC(C4)C2)C3)nc2c(Cl)cc(Cl)cc12)C1CCCCN1 |  | MIC |  | Pasteur | 25 µM
CCCCCn1cc(/C=N/Nc2nncs2)c2ccccc21 | 48 h | MIC100 | broth dilution | 1173P2 | 3.91 µg/mL
O=[N+]([O-])c1cccc(/C=N/Nc2ccc3ccccc3n2)c1O |  | MIC |  | Pasteur | >100 µM
C(=N\Nc1nncs1)/c1cn(CC2CCCCC2)c2ccccc12 | 24 h | MIC100 | broth dilution | 1173P2 | 15.63 µg/mL
COC(=O)Cc1ccc2[nH]c3ccc(F)cc3c2c1 |  | MIC99 | resazurin / visual reading / absorbance |  | 62.5 µg/mL
N#Cc1ccc(Cn2cc(/C=N/NC(=S)NN)c3ccccc32)cc1 | 24 h | MIC100 | broth dilution | 1173P2 | >500 µg/mL
O=C(O)Cc1cccc2[nH]c3ccc(Cl)cc3c12 |  | MIC99 | resazurin / visual reading / absorbance |  | 250 µg/mL
COC(=O)c1c(C)ccc2c(O)c3c(cc12)C(=O)c1c2c(cc(O)c1C3=O)C1(C)OC(C)(O2)C(O)C(N(C)C)C1O |  | MIC |  | Pasteur | 25 µM
C#CC(C)(O)CC | 24 h | MIC | resazurin | 1173P2 | 125 µg/mL
COC(=O)Cc1ccc2[nH]c3ccc(C)cc3c2c1 |  | MIC99 | resazurin / visual reading / absorbance |  | 31.3 µg/mL

Again, the opening 3 rows:

C#CCCC ; setting: 48 h ; endpoint: MIC ; method: resazurin ; strain or isolate: 1173P2 ; value: 15.5 µg/mL
CCn1cc(/C=N/NC(=S)NN)c2ccccc21 ; setting: 24 h ; endpoint: MIC100 ; method: broth dilution ; strain or isolate: 1173P2 ; value: >500 µg/mL
Cc1c(N)nc([C@H](CC(N)=O)NC[C@H](N)C(N)=O)nc1C(=O)N[C@H](C(=O)N[C@H](C)[C@@H](O)[C@H](C)C(=O)N[C@H](C(=O)NCCc1nc(-c2nc(C(=O)NCCC[S+](C)C)cs2)cs1)[C@@H](C)O)C(O[C@@H]1O[C@@H](CO)[C@@H](O)[C@H](O)[C@@H]1O[C@H]1O[C@H](CO)[C@@H](O)[C@H](OC(N)=O)[C@@H]1O)c1cnc[nH]1 ; endpoint: MIC ; strain or isolate: Pasteur ; value: 3.125 µM

An empty or dashed field is not shown. Lines come from different laboratories, so protocols vary.